Experiment [1] relates to influenza virus.
Experiment [2] concerns parainfluenza virus.
Experiment [3] relates to parainfluenza virus. In kind it is in vivo, Kunming mice. To be noted: low dose 3.25 mg/kg; for Hemagglutination titer inhibition rate (%): Day 5; for Hemagglutination titer: lung suspension, Day 5, […].
Experiment [4] concerns influenza virus. In kind it is in vivo, Kunming mice. To be noted: low dose 3.25 mg/kg; for Hemagglutination titer inhibition rate (%): Day 5; for Hemagglutination titer: lung suspension.
Where [5] appears, read: influenza virus 15LD50, 19.5 mg/kg gavage once a day 5 days.
[6] abbreviates: parainfluenza virus 15LD50, 19.5 mg/kg gavage once a day 5 days.
The mark [7] stands for this setting: influenza virus 15LD50, high dose 13.0 mg/kg gavage once a day 5 days.
The mark [8] stands for this setting: influenza virus 15LD50, low dose 3.25 mg/kg gavage once a day 5 days.
The mark [9] stands for this setting: parainfluenza virus 15LD50, high dose 13.0 mg/kg gavage once a day 5 days, listed as Lianqiaoxinside, 13 mg/kg.
The mark [10] stands for this setting: parainfluenza virus 15LD50, low dose 3.25 mg/kg gavage once a day 5 days, listed as Lianqiaoxinside, 3.25 mg/kg.
Where [11] appears, read: parainfluenza virus 15LD50, high dose 13.0 mg/kg gavage once a day 5 days.
The mark [12] stands for this setting: parainfluenza virus 15LD50, low dose 3.25 mg/kg gavage once a day 5 days.

Where “and” joins values, the source holds several entries; their conditions need not be identical. Equal values may be shown once. Read-outs that look alike come from different tables or passages of the source.

Results on 4 molecules are retold here after patent publication US20250049831A1, “ANTIVIRAL USE OF BISE[…], AND BISEPOXYLIGNAN COMPOSITION AND PREPARATION OF BISE[…]” (priority 2021, published 2025).

For the molecule `CCOC(=O)C1=C[C@@H](OC(CC)CC)[C@H](NC(C)=O)[C@@H](N)C1` [Oseltamivir phosphate, reference compound], in the experiment on influenza virus [1] (setting [5]), the “Lung index (X ± S)” value is on record as 1.188 ± 0.156 and the “Lung index inhibition rate (%)” value amounted to 21.01%. Besides, in the experiment with parainfluenza virus [2] (setting [6]), the “Lung index (X ± S)” value is 1.315 ± 0.623 and the “Lung index inhibition rate (%)” value was 17.97%.
Turning to `COc1cc(O)cc(C2OCC3C(c4ccc(OC5OC(CO)C(O)C(O)C5O)c(OC)c4)OCC23)c1` [Serial No. 1, (7,8,7′,8′)-7,7′-bisepoxy-5′-hydroxy-3,3′hydroxy-bismethoxylignan, 4-O-β-D-glucoside], the figures for the “Hemagglutination titer inhibition rate (%)” value in the experiment with parainfluenza virus [3] and in the experiment with influenza virus [4] were 32.84% and 38.43%, respectively. The Hemagglutination titer is reported as 23.25 ± 0.847 with parainfluenza virus [3] and 21.84 ± 0.511 in the experiment on influenza virus [4] (Day 5, titer (InX)). In addition, the “Lung index (X ± S)” value with influenza virus [1] (setting [7]) was 1.169 ± 0.623; in the experiment with influenza virus [1] (setting [8]), 1.185 ± 0.379; in the experiment on parainfluenza virus [2] (setting [9]), 1.270 ± 0.863 and 1.267 ± 0.015; with parainfluenza virus [2] (setting [10]), 1.372 ± 0.115 and 1.374 ± 0.848. Further, the “Lung index inhibition rate (%)” value was 22.27% with influenza virus [1] (setting [7]); 21.21% in the experiment with influenza virus [1] (setting [8]); 20.77% and 20.96% in the experiment with parainfluenza virus [2] (setting [9]); 14.41% and 14.29% in the experiment with parainfluenza virus [2] (setting [10]).
In the case of `COc1ccc([C@H]2OC[C@H]3[C@@H]2CO[C@H]3c2ccc(O[C@@H]3O[C@H](CO)[C@@H](O)[C@H](O)[C@H]3O)c(OC)c2)cc1OC` [Serial No. 2, phillyrin], the figures for the “Hemagglutination titer inhibition rate (%)” value in the experiment with parainfluenza virus [3] and with influenza virus [4] were 32.81% and 38.31%, respectively. The Hemagglutination titer with parainfluenza virus [3] is on record as 23.26 ± 0.219; in the experiment on influenza virus [4] (Day 5, […]), 21.88 ± 0.639.
As to `COc1cc([C@H]2OC[C@H]3[C@@H]2CO[C@H]3c2ccc(OC)c(OC)c2)ccc1O` [Serial No. 3, phillygenin], the “Hemagglutination titer inhibition rate (%)” value in the experiment on parainfluenza virus [3] is given as 32.21%; with influenza virus [4], 37.78%. The Hemagglutination titer in the experiment with parainfluenza virus [3] is recorded as 23.47 ± 0.893; in the experiment with influenza virus [4] (Day 5, […]) it was 22.07 ± 0.455. Also, the entries for the “Lung index (X ± S)” value in the experiment on parainfluenza virus [2] (setting [11]) and in the experiment with parainfluenza virus [2] (setting [12]) were 1.277 ± 0.056 and 1.379 ± 0.560, respectively. Further, the entries for the “Lung index inhibition rate (%)” value in the experiment with parainfluenza virus [2] (setting [11]) and with parainfluenza virus [2] (setting [12]) were 20.34% and 13.97%, respectively.
